A mixed list of measured activities; the numbers were collected in NIAID ChemDB.

Shared fields: host cell toxicity; cell line: THP-1; read-out: CC50

Conditions beyond the fields shown may differ between rows. CCn is the concentration with n% toxicity to the cells. An empty or dashed field is not shown.

smiles	read by	value
O=C(c1ccc2ccccc2n1)N1CCCC1	WST	>100 µM
C#CCSc1n[nH]c(-c2cccc([N+](=O)[O-])c2C)n1	-	>100 µg/mL
Oc1ccc(-c2nc(SCC3CC3)n[nH]2)cc1	MTT	>100 µg/mL
COc1ccc(OC)c2c1ccn2CCNC(=O)OC(C)(C)C	-	0.11 µM
FC(F)(F)c1ccc(Cl)c(-c2nc(=S)[nH][nH]2)c1	MTT	55.89 µg/mL
[N-]=[N+]=NCCn1ccc2c(O)ccc(O)c21	-	0.817 µM
NNC(=O)c1ccncc1	MTT	>100 µg/mL
CCCCSc1n[nH]c(-c2ccc([N+](=O)[O-])c(C)c2)n1	-	65.68 µg/mL
S=c1nc(-c2ccc(Cl)cc2)[nH][nH]1	MTT	>100 µg/mL
COc1ccc(OC)c2[nH]ccc12	-	0.392 µM
C=CCSc1n[nH]c(-c2ccco2)n1	-	>100 µg/mL
COc1ccc(OC)c2c1ccn2CCN=[N+]=[N-]	-	0.099 µM
O=[N+]([O-])c1ccc(-c2nc(=S)[nH][nH]2)cc1	MTT	38.83 µg/mL
C=CCSc1n[nH]c(-c2cccc(C(F)(F)F)c2)n1	-	>100 µg/mL
O=C(Nc1ccccc1C(F)(F)F)c1c(O)ccc2ccccc12	-	>20 µM

2 of the rows above, restated:

C#CCSc1n[nH]c(-c2cccc([N+](=O)[O-])c2C)n1 ; value: >100 µg/mL
FC(F)(F)c1ccc(Cl)c(-c2nc(=S)[nH][nH]2)c1 ; read by: MTT ; value: 55.89 µg/mL